PubChem BioAssay AID624099, ICCB-Longwood, 2012
Here is one part, drawn at random, of about 21,000 deposited reagents. Of all reagents, 497 (2.4%) are marked active. 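Higher z means weaker E2 silencing; only reporter increases were scored, and knock-downs that hurt cell survival may mask genuine repressor factors.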 Unmarked entries are inactive.

Test: 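Human genes that papillomavirus E2 requires to repress the HPV18 LCR promoter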 (primary screen)
Cell system: human C33A cervical carcinoma cells (HPV-negative) stably expressing BPV1 E2 and an HPV18 LCR luciferase reporter
Reagent: siRNA pool against human genes, 40 nM
Duration: 72 h
Detection: 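HPV18 LCR reporter light per well, converted to plate-wise z-scores that exclude control wells, and averaged over triplicate plates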
Direction: mean z-score and z-score: higher = stronger reporter signal, weaker E2 silencing
Active means: 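Hit if mean z-score reaches 2 and two or more of three replicate z-scores also reach 2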

AJAP1 | mean z-score = -1.14; z-score, replicate A = -0.81; z-score, replicate B = -1.34; z-score, replicate C = -1.27
TRPM3 | mean z-score = -1.29; z-score, replicate A = -0.97; z-score, replicate B = -1.49; z-score, replicate C = -1.43
SERPINA2 | mean z-score = 0.19; z-score, replicate A = 0.09; z-score, replicate B = 0.01; z-score, replicate C = 0.47
CMKLR2 | mean z-score = 0.65; z-score, replicate A = 0.73; z-score, replicate B = 0.63; z-score, replicate C = 0.58
SLC15A4 | mean z-score = 0.03; z-score, replicate A = -0.16; z-score, replicate B = 0.41; z-score, replicate C = -0.15
OR8B3 | mean z-score = -0.71; z-score, replicate A = -0.73; z-score, replicate B = -0.74; z-score, replicate C = -0.67
TOMM70 | mean z-score = 2; z-score, replicate A = 2.08; z-score, replicate B = 1.88; z-score, replicate C = 2.03
LOC391509 (retired record) | mean z-score = 0.99; z-score, replicate A = 0.5; z-score, replicate B = 1.28; z-score, replicate C = 1.19
RFPL1 | mean z-score = -0.01; z-score, replicate A = -0.13; z-score, replicate B = 0.17; z-score, replicate C = -0.06
PGAP6 | mean z-score = -0.67; z-score, replicate A = -1.03; z-score, replicate B = -0.95; z-score, replicate C = -0.04
LOC402036 (retired record) | mean z-score = 0.02; z-score, replicate A = -0.01; z-score, replicate B = 0; z-score, replicate C = 0.08
RPAP1 | mean z-score = -1.83; z-score, replicate A = -1.53; z-score, replicate B = -1.99; z-score, replicate C = -1.96
D2HGDH | mean z-score = 0.33; z-score, replicate A = 0.28; z-score, replicate B = 0.54; z-score, replicate C = 0.17
LOC389189 (retired record) | mean z-score = -0.02; z-score, replicate A = -0.17; z-score, replicate B = -0.11; z-score, replicate C = 0.21
TNFRSF21 | mean z-score = -0.46; z-score, replicate A = -0.5; z-score, replicate B = -0.53; z-score, replicate C = -0.35
RSAD2 | mean z-score = -0.67; z-score, replicate A = -0.45; z-score, replicate B = -0.67; z-score, replicate C = -0.88
SERTAD3 | mean z-score = -1.32; z-score, replicate A = -1.42; z-score, replicate B = -0.99; z-score, replicate C = -1.54
RAET1E | mean z-score = 0.19; z-score, replicate A = -0.06; z-score, replicate B = 0.07; z-score, replicate C = 0.55
NAV2 | mean z-score = 0.05; z-score, replicate A = 0.35; z-score, replicate B = 0.23; z-score, replicate C = -0.44
LOC400134 (retired record) | mean z-score = 1.28; z-score, replicate A = 0.98; z-score, replicate B = 1.27; z-score, replicate C = 1.59
MED12L | mean z-score = 1.11; z-score, replicate A = 0.91; z-score, replicate B = 1.31; z-score, replicate C = 1.12

Ordered by “z-score, replicate C” (ascending): some entries from above.
TNFRSF21 | mean z-score = -0.46; z-score, replicate A = -0.5; z-score, replicate B = -0.53; z-score, replicate C = -0.35
LOC389189 (retired record) | mean z-score = -0.02; z-score, replicate A = -0.17; z-score, replicate B = -0.11; z-score, replicate C = 0.21
